Assay [1] addresses T1, hemagglutinin (HA) of influenza A/Wisconsin/67/05 H3N2 (Influenza A virus A/Wisconsin/67/2005 …). Description: ELISA, inactivated whole virions coated; transfection supernatant set 4.
In assay [2] the target is T1, hemagglutinin (HA) of influenza …. Kind of assay: ELISA, inactivated whole virions coated; transfection supernatant set 3. A general note: An ELISA detects its analyte on a solid surface through an enzyme-linked reagent.
The target of assay [3] is recombinant soluble homotrimeric HA of A/Wisconsin/67/05 (H3N2) (Influenza A virus A/Wisconsin/67/05 …).
The target of assay [4] is recombinant soluble homotrimeric HA of A/Vietnam/1203/04 (H5N1) (Influenza A virus A/Vietnam/1203/04 …).
Assay [5] concerns the target recombinant soluble homotrimeric HA of A/Indonesia/5/05 (H5N1) (Influenza A virus A/Indonesia/5/05 …).
The target of assay [6] is recombinant soluble homotrimeric HA of A/Anhui/1/05 (H5N1) (Influenza A virus A/Anhui/1/05 (H5N1)).
Assay [7] has as its target recombinant soluble homotrimeric HA of A/California/4/09 (H1N1) (Influenza A virus A/California/4/09 …). Kind of assay: microarray, BCC supernatant IgG, trimeric HA.
Assay [8] addresses recombinant soluble homotrimeric HA of A/Solomon Islands/3/06 (H1N1) (Influenza A virus A/Solomon …). Description: microarray, BCC supernatant IgG, trimeric HA.
In assay [9] the target is recombinant soluble homotrimeric HA of A/swine/Ontario/01911-2/99 (H4N6) (Influenza A virus …). Kind of assay: microarray, BCC supernatant IgG, trimeric HA.
In assay [10] the target is recombinant soluble homotrimeric HA of A/Egypt/3300-NAMRU3/08 (H5N1) (Influenza A virus …). Description: microarray, BCC supernatant IgG, trimeric HA.
Assay [11] concerns the target recombinant soluble homotrimeric HA of A/chicken/Vietnam/NCVD-016/08 (H5N1) (Influenza A virus …). Kind of assay: microarray, BCC supernatant IgG, trimeric HA.
The target in assay [12] is recombinant soluble homotrimeric HA of A/northern shoveler/California/HKWF115/07 (Influenza A virus A/northern …). Kind of assay: microarray, BCC supernatant IgG, trimeric HA.
Assay [13] deals with recombinant soluble homotrimeric HA of A/duck/Yangzhou/02/05 (H8N4) (Influenza A virus …). Description: microarray, BCC supernatant IgG, trimeric HA.
The target in assay [14] is recombinant soluble homotrimeric HA of A/Netherlands/219/03 (H7N7) (Influenza A virus A/Netherlands/219/03 …).
For assay [15], the target named is recombinant soluble homotrimeric HA of A/Hong Kong/2108/03 (H9N2) (Influenza A virus A/Hong Kong/2108/03 …). Kind of assay: microarray, BCC supernatant IgG, trimeric HA.

B1: TCN-536 (5095_N01) (antibody, V domains shown)
VH: QVQLQQWGAGLLKPSETLSLTCAVYGGSFSVSGYYWSWIRQPPGRGLEWIGEISHGGSTNYNPSLKSRVTISVDTTKNQFSLRLSSVTAADTAVYYCARGTDPDTEVYCRVGNCAAFDYWGQGSLVTVSS
VL: EIILAQSPGTLSLSPGERATLSCRASQFVSTRSLAWYQQRPGQAPRLLIYGASSRATGIPDRFSGSGSGTDFTLTISRLEPEDFAVYYCQHYGYSPRYAFGQGSKVEIK
B1 came in with an OD450 in [1] of 3.61 OD450.

B2: TCN-533 (5256_A17) (antibody, V domains shown)
VH: QVQLVQSGADVKKPGSSVTVSCKASGGSFSNYGINWVRQAPGQGLEWMGGIIPLINAPNYAPKFQGRVTITADMFSNIVSLQLTSLRTDDTAVYYCARRKMTTAIDYWGQGTLVTVSS
VL: QPVLSQPPSASASLGASVTLTCTLSSGFDNYQVAWYQQRPGKGPRFVMRVGNGGNVASKGDGIPDRFSVSGSGLNRYLTIKNIQEDDESDYYCGADHGSGNNFVSPYVFGGGTKLTVL
As for B2, in assay [2], the OD450 was 0.22 OD450.

B3: TCN-535 (5246_P19) (antibody, V domains shown)
VH: QVQLVQSGSEVKKPGTSVKVSCTASGSVFTNYGISWVRQAPGQGLEWMGGIIPLFGAAKYAQKFQGRVTITADESTKTVYMELSRLTSKDTAIYFCAKAPRVYEYYFDQWGQGTPVTVSS
VL: EIVLTQSPGTLSLSPGERATLSCRASQSVSSSQLAWYQQKPGQAPRLIIYGASTRATGIPDRFSGSGSGTDFTLTIGRLEPEDFAVFFCQQYSTSPPTFGQGTKVDFK
B3 registered an OD450 in [1] of 0.1 OD450.

B4: TCN-530 (5248_H10a) (antibody, V domains shown)
VH: QVQLVQSGAEVRKPGSSVKVSCKASGGPFMSYAIGWVRQAPGQGLEWMGGINPVFGRPHYAQKFQGRVTIATDDSTKTSYMELSSLTSEDTGMYYCASRYSRSSPGTFESWGQGTLVTVSS
VL: EIVMTQFPATLSVSPGERVTLSCRASQSVSNNLAWYQQKPGQPPRLLIYDASTRATGVPAKFSGTGSGTEFTLSISSLQSEDFAVYYCQQYHNWPPSYSFGLGTKLEIK
The molecule B4 gave an OD450 in assay [2] of 0.21 OD450.

B5: TCN-553 (5261_C18) (antibody, V domains shown)
VH: QVQVVQSGTEVKKPGSSVKVSCQTSGGRFMSYAITWVRQAPGQGLEWMGGIVPVFGTANYAQKFQGRVTITTDDSTRTAYMELSSLRSEDTAVYYCGFRYGSGYGFDSWGQGTLVTVSS
VL: EIVLTQSPGTLSLSPGERATLSCRASQSVSSSYLAWYQKKPGQAPRLLIYGASTRATGIPDRFTGSGSGTDFTLSISRLEPEDFAVYYCQHFGTSVFTFGGGTKVEIK
For B5, the “Trimeric HA Binding: RLU” value in assay [3] came out at 20000 RLU; in [4], 6560 RLU; in [5], 24400 RLU; in assay [6], 12600 RLU; in assay [7] it was 20300 RLU; in [8], 16300 RLU. Moreover, the “Trimeric HA Binding: RLU” value was 2580 RLU in assay [9]; 18800 RLU in assay [10]; 24200 RLU in assay [11]; 21700 RLU in [12]; 28000 RLU in assay [13].

B6: TCN-551 (5243_D01) (antibody, V domains shown)
VH: EVQLVQSGSEVKKPGESLKISCKGSGYSFSNYWIGWVRHMPGKGLEWMGIIYPGDSDTRYSPSFQGQVTMSADKSSSTVYLQWSSLKASDTAIYYCARRGGHSFGYGSGGDTHSEFDSWGQGTLVTVSS
VL: QSVLTQSPSVSAAPGQKVTISCSGSDSNIGDYFVCWYQHLPGKPPQLLIYENNKRPSGIPDRFSGSKSGTSATLGITGIQTGDEADYYCATWDGSLSAWVFGGGTKLTVL
For B6, the “Trimeric HA Binding: RLU” value came to 6840 RLU in assay [3]; 4150 RLU in [4]; 53500 RLU in [5]; 4190 RLU in assay [6]; 53400 RLU in [7]; 53800 RLU in assay [8]. Also, the “Trimeric HA Binding: RLU” value is 47200 RLU in assay [10] and 9820 RLU in assay [13].

B7: TCN-557 (5081_A04) (antibody, V domains shown)
VH: QVQLVQSGAEVKKPGASVKVSCKASGHTFTGYYIHWVRQAPGQGLEWMGWINPDSGATSSAQNFQGRVTMTGDTSSSTAYMELSRLSFDDTAVYYCARVLFTSPFDFWGEGTLVTVSS
VL: QAVVTQEPSLAVSPGGTVTLTCGSSTGAVTRGHYPYWFQQKPGQAPRALIYDSAGNRHSWTPARFSGSLLGGKAALTLSGAQPEDEAEYYCLLSYSGVWVFGGGTKLTVL
Regarding B7, the “Trimeric HA Binding: RLU” value is 10200 RLU in assay [3]; 47300 RLU in assay [4]; 45200 RLU in [5]; 46000 RLU in assay [6]; 6780 RLU in assay [14]; 17600 RLU in assay [7]. Further, the “Trimeric HA Binding: RLU” value in assay [8] came to 40700 RLU; in assay [9] it was 27000 RLU; in assay [11], 45500 RLU; in assay [12], 24400 RLU; in assay [13], 50100 RLU; in [15], 35300 RLU.

B8: TCN-534 (5249_B02) (antibody, V domains shown)
VH: QVQLVQSGAEVKKPGSSVKVSCRESGGTFNGYTITWVRQAPGQGLEWMGGIIPMMGTVNYAQKLQGRVTITTDYFTKTAYMDLNNLRSEDTAMYYCVKIRYTGQQLLWGQGTLVTVSS
VL: DIQMTQSPSTLSASIGDRVTITCRASQSIASWLAWYQQKPGKAPKLLIYEAVNLESGVPSRFSGSGSGTDFTLTISSLQPDDFATYFCQHYGTISQTFGGGTKVEIK
B8 had an OD450 in assay [1] of 0.08 OD450.

B9: TCN-555 (5246_L16) (antibody, V domains shown)
VH: QVQLVQSGAEVKRPGSSVKVSCTASGGIFRKNAISWVRQAPGQGLEWMGGIIAVFNTANYAQKFQNRVKITADESGNTAYMELSSLTSDDTAVYYCASHPKYFYGSGSYPDFWGQGTLVTVSS
VL: QSALTQPRSVSGSPGQSITISCTGGSSDIGASNSVSWYQQHPGKAPKLVIFDVTERPSGVPHRFSGSKSGNTASLTVSGLQPDDEADYFCCAYGGKYLVVFGGGTKVTVL
Take B9: the “Trimeric HA Binding: RLU” value in [3] stood at 9800 RLU; in assay [4] it was 876 RLU; in [5], 34500 RLU; in [7] it was 44900 RLU; in assay [8] it was 26400 RLU; in assay [10] it was 42700 RLU. Besides, the “Trimeric HA Binding: RLU” value in assay [11] was 22300 RLU; in [12], 49500 RLU; in [13] it was 18400 RLU.

B10: TCN-529 (5297_H01) (antibody, V domains shown)
VH: QITLRESGPTLVKPTQTLTLTCTFSGFSLSTNGVNVGWIRQPPGKALEWLALIYWDDDKRYSPSLKRRLTITKDTSKNQVVLTLTNMDPVDTATYYCAHRPDFYGDFEYWGPGTLVTVSS
VL: QSALTQPASVSGSPGQSITISCTGSSSDIGGYNYVSWYQQHPGKAPKLMIYDVNNRPSGVSNRFSGSKSGNTASLTISGLQTDDEADYYCGSYTGSPHYVFGTGTKVTVL
Regarding B10, the OD450 in assay [2] turned out to be 3.65 OD450.

B11: TCN-532 (5262_H18) (antibody, V domains shown)
VH: QVQLQESGPGLVKPSETLSLTCTVSGGSVSSETYYWSWIRQPPGKGLEWIGYIYYIGNTDYRPSLKSRVTISLDTSKNQFSLKLSSVTAADTAVYYCARGAYYDSSGYPAFYIWGQGTMVTVSS
VL: QSVLTQPPSVSGAPGQRVTISCTGSSSNIGSDYDVHWYKQLPGTAPKLLIFGNSNRPSGVPDRFSGSKSGTSASLAITGLQAEDEADYYCQSYDSSLSGFHVFGSGTKVTVL
Molecule B11 came in with an OD450 in assay [2] of 3.43 OD450.

B12: TCN-552 (5249_I23) (antibody, V domains shown)
VH: QVQVVQSGAEVKKPGSSVRVSCQASGGTFMNYAIIWVRRAPGQGLEWMGGIIPVFPTPNYAQMFQGRVTISTDESRSTSFLELTNLRYEDTAVYYCARRIYHGGNSGFDFWGQGTLVTVSS
VL: EIVLTQSPATLSLSPGERATLSCRASQSVGNYLAWYQQKPGQAPRLLIYDSSNRAPGIPARFSGSGSGTDFTLTISSLAPEDFAVYYCQQRSKWPPMYSFGHGTKLEIK
As to B12, the “Trimeric HA Binding: RLU” value in [3] was 14800 RLU; in [4], 2730 RLU; in [5] it was 43600 RLU; in assay [6], 4160 RLU; in [7], 35300 RLU; in [8] it was 39300 RLU. For the same molecule, the “Trimeric HA Binding: RLU” value was found to be 40000 RLU in assay [10], 46200 RLU in assay [11], 38400 RLU in assay [12] and 13100 RLU in assay [13].

(Values after patent publication US20120207760A1, “Compositions and Methods for the Therapy and Diagnosis of Influenza” (THERACLONE SCIENCES, published 2012).)
